Compound potency records, mixed from different reports. Data source: NIAID ChemDB in PubChem.

All rows: enzyme or target tests

Conditions beyond the fields shown may differ between rows. Two numbers with a dash give a range or band. Inhibition is in % at the dose shown (toxicity tests: loss of growth or viability). ICn is the concentration giving n% inhibition.

{"smiles": "CCN(c1cc2oc(-c3ccc(F)cc3)c(C(=O)NC)c2cc1OCc1cccc2c1C(=O)OC(C)(C)O2)S(C)(=O)=O", "read-out": "IC50", "protein": "Nonstructural protein 5B", "agent": "Hepatitis C virus", "result": "≤0.5 µM"}
{"smiles": "CCOC(=O)C1=CN(N2CCN(c3nc(Nc4ccc5[nH]ncc5c4)nc(OC)n3)CC2)C(SC)N=C1", "dose": "1 µg/mL", "read-out": "inhibition", "protein": "DNA polymerase", "agent": "Hepatitis B virus", "result": "39%"}
{"smiles": "O=C(O)c1nc(-c2ccccc2NS(=O)(=O)c2ccc(-c3ccccc3)cc2)[nH]c(=O)c1O", "read-out": "IC50", "protein": "HCV polymerase", "agent": "Hepatitis C virus", "result": "<100 µM"}
{"smiles": "O=C(O)c1ccc2c(c1)nc(-c1ccc3[nH]c(-c4ccccc4)cc(=O)c3c1)n2C1CCCCC1", "dose": "33 µM", "read-out": "inhibition", "protein": "NS5B polymerase", "agent": "Hepatitis C virus", "result": "39.89%"}
{"smiles": "O=C(O)c1cc2nc(-c3cccc(Cl)c3)cc(-c3ccc(-c4ccccc4)cc3)n2n1", "read-out": "IC50", "protein": "RNA-dependent RNA polymerase", "agent": "Hepatitis C virus", "result": "1–10 µM"}
{"smiles": "O=C(NCc1ccccc1[N+](=O)[O-])Nc1ccccc1-c1nc(C(=O)O)c(O)c(=O)[nH]1", "read-out": "IC50", "protein": "HCV polymerase", "agent": "Hepatitis C virus", "result": "<100 µM"}
{"smiles": "C=Cc1ccccc1S(=O)(=O)Nc1cc(-c2ccccc2)sc1C(=O)O", "read-out": "IC50", "protein": "NS3 ATPase", "agent": "Hepatitis C virus", "result": "5–20 µM"}
{"smiles": "O=C(O)c1cc2nc(-c3ccc(Cl)cc3Cl)cc(-c3ccc(OCc4ccccc4)cc3)n2n1", "read-out": "IC50", "protein": "RNA-dependent RNA polymerase", "agent": "Hepatitis C virus", "result": "1–10 µM"}
{"smiles": "NC(=O)[C@H](Cc1cnc[nH]1)NC(=O)c1ccc2ccc(-c3nc4cc(C(=O)O)ccc4n3C3CCCCC3)cc2n1", "dose": "33 µM", "read-out": "inhibition", "protein": "NS5B polymerase", "agent": "Hepatitis C virus", "result": "51.25%"}
{"smiles": "Cc1ccccc1S(=O)(=O)Nc1cc(-c2cnn(S(=O)(=O)N(C)C)c2)sc1C(=O)O", "read-out": "IC50", "protein": "NS3 ATPase", "agent": "Hepatitis C virus", "result": "5–20 µM"}
{"smiles": "CN1CCN(C(=O)c2ccc3c(c2)nc(-c2cc4ccc(-c5ccccc5-c5ccc(Cl)cc5)nc4cc2F)n3C2CCCCC2)CC1", "dose": "33 µM", "read-out": "inhibition", "protein": "NS5B polymerase", "agent": "Hepatitis C virus", "result": "84.85%"}
{"smiles": "Cc1ccc(S(=O)(=O)N(c2cc(-c3ccccc3)sc2C(=O)O)C(C)C)c(C)c1", "read-out": "IC50", "protein": "NS3 ATPase", "agent": "Hepatitis C virus", "result": "5–20 µM"}
{"smiles": "O=C(O)c1cc2nc(-c3ccc(Cl)cc3)cc(-c3cc(F)cc(F)c3)n2n1", "read-out": "IC50", "protein": "RNA-dependent RNA polymerase", "agent": "Hepatitis C virus", "result": "1–10 µM"}
{"smiles": "COc1cccc(S(=O)(=O)Nc2cc(-c3ccc(CC(C)C)cc3)sc2C(=O)O)c1", "read-out": "IC50", "protein": "NS3 ATPase", "agent": "Hepatitis C virus", "result": ">20 µM"}
{"smiles": "O=C(O)c1cc2nc(-c3ccc(Cl)cc3Cl)cc(-c3ccccc3Cl)n2n1", "read-out": "IC50", "protein": "RNA-dependent RNA polymerase", "agent": "Hepatitis C virus", "result": ">10 µM"}
{"smiles": "COc1nc(Nc2ccc3cn[nH]c3c2)nc(N2CCCC2)n1", "read-out": "IC50", "protein": "DNA polymerase", "agent": "Hepatitis B virus", "result": "0.1–1 µg/mL"}
{"smiles": "COCCOc1cccc(-c2ccc3cc(-c4nc5cc(C(=O)O)ccc5n4C4CCCCC4)ccc3n2)c1", "dose": "33 µM", "read-out": "inhibition", "protein": "NS5B polymerase", "agent": "Hepatitis C virus", "result": "96.88%"}
{"smiles": "COc1nc(Nc2ccc3[nH]ncc3c2)nc(N2CCC(C(N)=O)CC2)n1", "dose": "0.1 µg/mL", "read-out": "inhibition", "protein": "DNA polymerase", "agent": "Hepatitis B virus", "result": "48%"}
{"smiles": "COc1ccc(C2CCCCC2)c(-c2ccc3cc(-c4nc5cc(C(=O)O)ccc5n4C4CCCCC4)ccc3n2)c1", "dose": "100 µM", "read-out": "inhibition", "protein": "NS5B polymerase", "agent": "Hepatitis C virus", "result": "101%"}
{"smiles": "COc1cccc(-c2cc(-c3ccccc3Cl)n3nc(C(=O)O)cc3n2)c1", "read-out": "IC50", "protein": "RNA-dependent RNA polymerase", "agent": "Hepatitis C virus", "result": ">10 µM"}
{"smiles": "CCCN(CCC)Cc1ccc2cc(-c3nc4cc(C(=O)O)ccc4n3C3CCCCC3)ccc2n1", "dose": "100 µM", "read-out": "inhibition", "protein": "NS5B polymerase", "agent": "Hepatitis C virus", "result": "96.01%"}
{"smiles": "NC(=O)c1ccc(-c2cc(NS(=O)(=O)c3ccc(Cl)cc3)c(C(=O)O)s2)cc1", "read-out": "IC50", "protein": "NS3 ATPase", "agent": "Hepatitis C virus", "result": "<5 µM"}
{"smiles": "O=C(O)c1nc(-c2cccc(C#CCO)c2)[nH]c(=O)c1O", "read-out": "IC50", "protein": "HCV polymerase", "agent": "Hepatitis C virus", "result": "<100 µM"}
{"smiles": "O=C(O)c1sc(-c2ccccc2)cc1NS(=O)(=O)c1ccc(C(F)(F)F)cn1", "read-out": "IC50", "protein": "NS3 ATPase", "agent": "Hepatitis C virus", "result": "5–20 µM"}
{"smiles": "COc1nc(NCCCN2CCCC2=O)nc(Nc2ccc3[nH]ncc3c2)n1", "dose": "0.01 µg/mL", "read-out": "inhibition", "protein": "DNA polymerase", "agent": "Hepatitis B virus", "result": "7%"}
{"smiles": "O=C(CSCc1ccncc1)Nc1ccsc1-c1nc(C(=O)O)c(O)c(=O)[nH]1", "read-out": "IC50", "protein": "HCV polymerase", "agent": "Hepatitis C virus", "result": "<25 µM"}
{"smiles": "CNC(=O)c1c(-c2ccc(F)cc2)oc2cc(C(C)(C)NC(C)=O)c(OC)cc12", "read-out": "IC50", "protein": "Nonstructural protein 5B", "agent": "Hepatitis C virus", "result": "≤0.5 µM"}
{"smiles": "COc1nc(NCCc2c[nH]c3ccccc23)nc(Nc2ccc3cn[nH]c3c2)n1", "dose": "0.1 µg/mL", "read-out": "inhibition", "protein": "DNA polymerase", "agent": "Hepatitis B virus", "result": "26%"}
{"smiles": "CNC(=O)c1c(-c2ccc(F)cc2)oc2cc(NC(C)(C)C)c(OC(C)C)cc12", "read-out": "IC50", "protein": "Nonstructural protein 5B", "agent": "Hepatitis C virus", "result": "≤0.5 µM"}
{"smiles": "COc1ccc(-c2ccc(Cl)cc2)c(-c2ccc3cc(-c4nc5cc(C(=O)O)ccc5n4C4CC(C)CC(C)(C)C4)ccc3n2)c1", "dose": "100 µM", "read-out": "inhibition", "protein": "NS5B polymerase", "agent": "Hepatitis C virus", "result": "101%"}
{"smiles": "O=C(Nc1cccc(-c2nc(C(=O)O)c(O)c(=O)[nH]2)c1)Oc1ccccc1", "read-out": "IC50", "protein": "HCV polymerase", "agent": "Hepatitis C virus", "result": "<100 µM"}
{"smiles": "CNC(=O)c1c(-c2ccc(F)cc2)oc2cc(N(CS(C)(=O)=O)C(=O)NC)c(OC)cc12", "read-out": "IC50", "protein": "Nonstructural protein 5B", "agent": "Hepatitis C virus", "result": "≤0.5 µM"}
{"smiles": "C=CCN(C(=O)Cc1ccc(Cl)c(Cl)c1)c1cc(-c2ccccc2)sc1C(=O)O", "read-out": "IC50", "protein": "NS3 ATPase", "agent": "Hepatitis C virus", "result": "5–20 µM"}
{"smiles": "COc1ccc(-c2cnc(OC)nc2OC)c(-c2ccc3cc(-c4nc5cc(C(=O)O)ccc5n4C4CCCCC4)ccc3n2)c1", "dose": "100 µM", "read-out": "inhibition", "protein": "NS5B polymerase", "agent": "Hepatitis C virus", "result": "98.3%"}
{"smiles": "Cc1cnc2c(C(=O)O)cnn2c1C1CCCCC1", "read-out": "IC50", "protein": "RNA-dependent RNA polymerase", "agent": "Hepatitis C virus", "result": ">10 µM"}
{"smiles": "CC(C)(C)NC(=O)Nc1cccc(-c2nc(C(=O)O)c(O)c(=O)[nH]2)c1", "read-out": "IC50", "protein": "HCV polymerase", "agent": "Hepatitis C virus", "result": "<100 µM"}
{"smiles": "O=C(O)c1cc2nc(-c3ccc(OCc4ccccc4)cc3)c(CCc3ccccc3)c(=O)n2[nH]1", "read-out": "IC50", "protein": "RNA-dependent RNA polymerase", "agent": "Hepatitis C virus", "result": "1–10 µM"}
{"smiles": "Cc1ccc(S(=O)(=O)Nc2ccccc2-c2nc(C(=O)O)c(O)c(=O)[nH]2)cc1", "read-out": "IC50", "protein": "HCV polymerase", "agent": "Hepatitis C virus", "result": "<100 µM"}